## Library screen at single concentrations

Measurements from “University of Dundee, Small-Polar-MMV Screening Library” (2021), ChEMBL document CHEMBL3988442.

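Whole-cell growth test on Mycobacterium tuberculosis, read after 3 days in glucose-containing 7H9 medium; the read-out is not stated. Tested at 500 µM. Higher reads as more growth inhibition (inferred: compounds with an IC50 in retests scored well above the rest). Of about 18,000 compounds tested this way, about 1,400 (7.9%) reached 50% or more in at least one test.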

Results are given as percent effect. How 0% and 100% were set is not recorded. Most values in the screen are low, and negative values occur. Many other results are left out here, so strong results are more common than in the screen.

SMILES	percent effect
CCc1ccsc1C(=O)NCCCN1CCN(C)CC1	22.64%
CNC(=O)COC(=O)Cc1ccc(Br)cc1	52.51%
CCC1c2ccsc2CCN1CC(=O)N(C)C (stereo unspecified)	27.68%
CNC(=O)c1cccc(NCc2ccc(C#N)s2)n1	68.75%
COc1cc(F)cc(NCC(=O)NCc2ccco2)c1	74.97%
CC(O)CNc1ncccc1I (stereo unspecified)	21.13%
C[C@H](N)c1ccc(Cl)s1	35.47%
CCc1ccccc1S(=O)(=O)N(C)C(C)CN (stereo unspecified)	43.69%
CCn1cc(Br)c(=O)c(NC(=O)[C@@H]2CCCO2)c1	12.92%
CCc1nnc2n1CC(NC(=O)Cn1cccn1)CC2 (stereo unspecified)	5.453%
Cn1cc(CNCC(=O)NCc2ccco2)cn1	-3.091%
NC(=O)Cn1c(C2CC2)nc2ccccc21	-5.11%
Cc1ccc2oc(N3CCNCC3)nc2c1	63.68%
Cn1nc2c(c1CN)CCCC2	-4.323%
CC(C)C(C)N(C)c1ccc2nnnn2n1 (stereo unspecified)	-1.041%
O=C1CN(CC(=O)N2CCCCCC2)CCN1	-11.39%
CC(C)NC(=O)CCN(C)C(C)Cc1cnccn1 (stereo unspecified)	0.3464%
Nc1ncnc(N2CCCCC2)n1	4.452%
COc1ccc(S(=O)(=O)N2CC(N)C2)cc1	3.492%
CC(C)N1CC(C(=O)NCc2c[nH]nn2)CC1=O (stereo unspecified)	-5.682%
Cn1c(COC(=O)C2(C)CCCC2)cc(=O)n(C)c1=O	-3.819%
COC(=O)CCNS(=O)(=O)c1ccc(OC)cc1	51.7%
CCNC(=O)C1CC(=O)N(C2CCCCC2)C1 (stereo unspecified)	7.779%
CC(Oc1ccccc1)C(=O)NC1CCN(C)CC1 (stereo unspecified)	11.68%
CNC(=O)CN(C)CCn1c(=O)cc(C)[nH]c1=O	6.223%
CN(C)c1nc(-c2ccc3c(c2)CCC(=O)N3)cs1	56.25%
Oc1ccc2c(c1)COC2	8.359%
CCOc1ccc(C(=O)N(C)C(C)c2ccncn2)o1 (stereo unspecified)	21.43%
COCCOc1ccc(CN)cn1	10.9%
COc1cccc(OC(C)CN)c1 (stereo unspecified)	5.698%
CC(C)NC(=O)CN1c2cc(Cl)ccc2CS1(=O)=O	4.31%
CCC(=O)NCc1ccncc1OCC(F)(F)F	5.664%
CCc1cc(CNC(=O)c2ccc(F)c(F)c2)[nH]n1	70.12%
COc1ccccc1CCNC(=O)CC1CCCO1 (stereo unspecified)	49.32%
CN(C)CCNCCOCCO	-15.18%
CN1CCOC(C(=O)Nc2cc(Cl)cc3c2OCC3)C1 (stereo unspecified)	27.6%
Cn1ccnc1CN1CCN(Cc2ccccn2)CC1	20.47%
CS(=O)(=O)N1CCC(Nc2ncc(Br)cn2)CC1	-3.951%
CC(=O)N1CCC(N)c2ccccc21 (stereo unspecified)	-1.551%
NCC(=O)N1CCN(Cc2ccccc2)CC1	8.09%
Cc1cc(C(=O)NCCCN(C)CC(F)(F)F)no1	39.58%
CNCc1cnn(Cc2ccccc2)c1	-2.33%
Cc1n[nH]c(C)c1S(=O)(=O)N(C)CC(=O)NC1CC1	15.2%
OC[C@@H]1CCCN1Cc1cccc(F)c1F	58.3%
NCc1ccc(CN2CCC(C(N)=O)CC2)cc1	-9.166%
CN(CCCNC(=O)[C@H]1CC[C@@H](N)C1)c1ccccc1	41.05%
NC(CC(=O)N1CCSCC1)c1ccccc1 (stereo unspecified)	12.42%
CN(CCN)S(=O)(=O)c1cccs1	7.313%
CC1Cc2ccccc2N(C(=O)c2csnn2)C1 (stereo unspecified)	56.2%
Cc1ccnc(NCCS(=O)(=O)NCC2CCC2)c1	72.24%
Cn1nnc(NC(=O)c2ccc(C#N)cc2F)n1	9.184%
Cc1nnc(SCC(=O)NC2CC2)n1-c1ccccc1	24.66%
CN1CC[C@H]2CN(C(=O)CCCn3cccn3)C[C@H]21	11.12%
Cc1cc(NC(=O)CN2CCCC2)n(C)n1	-5.336%
NCCc1nc(-c2ccccn2)cs1	74.8%
CCC(c1nnc(SCC(=O)NCC(C)C)o1)N(C)C (stereo unspecified)	61.23%
OCc1ccc(OCCF)cn1	-13.74%
CC(C)(C(=O)NCc1cccnc1)c1ccccc1	23.51%
CCOC1CCN(C(C(N)=O)c2ccccc2)CC1 (stereo unspecified)	-0.07924%
NC(=O)C1CCN(C(=O)CCc2ccc(Cl)cc2Cl)C1 (stereo unspecified)	68.32%
CN1CCN(C2CCN(C(=O)Cc3ccsc3)C2)CC1 (stereo unspecified)	4.565%
CC(=O)c1c(F)cccc1N(C)CCC(C)O (stereo unspecified)	44.82%
COCCCNCc1cccc(OC)c1	13.13%
Cc1cc(C)n(C2CCCNC2)n1 (stereo unspecified)	0.7527%
CNC(=O)C1CCCN1Cc1ncc(C(C)(C)C)o1 (stereo unspecified)	41.36%
CN(CCC(C)(C)O)C(=O)c1ccc(N)nc1	7.627%
CN(C)[C@@H]1CN(C(=O)c2ccccc2Br)C[C@H]1CO	-14.88%
O=C1CCCN1CCN1CCCC(CO)(CC2CC2)C1 (stereo unspecified)	13.07%
c1cc2nnnn2nc1NCCN1CCCCCC1	0.489%
CC1(CNC(=O)c2cnccn2)CCOCC1	30.88%
Cc1cc(C(=O)NCCCN(C)C)c2ccccc2n1	9.008%
Cc1cc(-n2cccn2)ccc1NC(=O)CN(C)C	32.21%
COC1CCN(CCC(=O)Nc2cccnc2)C1 (stereo unspecified)	-10.06%
CNCCNC(C)=O	-14.5%
NC(=O)CN1CCC(OCc2ccccc2)CC1	35.29%
CO[C@@H]1CCOC[C@H]1NC(=O)c1cccc(N(C)C)c1	9.856%
CC(=O)NC1CCN(C2CCCCC2)CC1	-1.108%
COCCN1C(=O)C[C@@H](CN)[C@@H]1c1cnn(C(C)C)c1	-1.586%
COc1ccc(CN(C)CC2CCOCC2)cn1	-21.29%
CCc1cc(N2CCCC(N)C2)ncn1 (stereo unspecified)	49.09%
Cn1ncnc1CNS(=O)(=O)c1c(F)cccc1Br	-4.111%
O=S(=O)(NCC(O)CN1CCCC1)C1CCCCC1 (stereo unspecified)	38.75%
CCn1cc(Br)cc1C(=O)N1CCN(CC(C)O)CC1 (stereo unspecified)	13.7%
Cn1ccc(CNC(=O)c2cccnc2C(F)(F)F)c1	-4.511%
CC(CNc1ccc2nnnn2n1)N1CCOCC1 (stereo unspecified)	-5.586%
CCc1ccccc1NC(=O)C1=NN(C)C(=O)CC1	-11.31%
Cc1cc(C(=O)Nc2ccc3c(c2)CC(=O)N3)c(C)o1	14.07%
CCC(C)(C)NC(=O)C1CCCN(C(=O)C(C)C)C1 (stereo unspecified)	9.647%
c1ccc(CNC2CCSC2)nc1 (stereo unspecified)	26.55%
COC(=O)c1ccc(NC(=O)CCn2cnnn2)cc1	14.44%
COC(=O)CCCC(=O)N1CCCc2ccccc2C1	54.97%

Some entries from above, unchanged:

SMILES	percent effect
CN(CCC(C)(C)O)C(=O)c1ccc(N)nc1	7.627%
Cc1cc(NC(=O)CN2CCCC2)n(C)n1	-5.336%
CNC(=O)c1cccc(NCc2ccc(C#N)s2)n1	68.75%
CCn1cc(Br)c(=O)c(NC(=O)[C@@H]2CCCO2)c1	12.92%
CCc1ccsc1C(=O)NCCCN1CCN(C)CC1	22.64%
CC(C)N1CC(C(=O)NCc2c[nH]nn2)CC1=O (stereo unspecified)	-5.682%
Cc1nnc(SCC(=O)NC2CC2)n1-c1ccccc1	24.66%
Cn1ccnc1CN1CCN(Cc2ccccn2)CC1	20.47%
CC(C)(C(=O)NCc1cccnc1)c1ccccc1	23.51%